Compound potency records, mixed from different reports. Data source: NIAID ChemDB in PubChem.

Common to all: enzyme or target tests; agent: HIV-1; protein: Reverse transcriptase; measure: IC50

An empty or dashed field is not shown.

structure,read by,mutations,strain,value
NS(=O)(=O)c1ccc(NC(=O)CSc2nnnn2-c2cccc(Cl)c2Cl)c(Cl)c1,,,,0.009 µM
CNC(=O)[C@@H](Cc1c[nH]c2ccccc12)NC(=O)OC[C@H]1O[C@@H](n2cc(C)c(=O)[nH]c2=O)C[C@@H]1N=[N+]=[N-],radiometric,,,>100 µM
CCCS(=O)(=O)N1CCN(C(=O)c2cc(O)c(O)c(O)c2)CC1,ELISA / nucleotide incorporation,,BH10,>50 µM
Cc1cn([C@@H]2O[C@H](CO[Si](C)(C)C(C)(C)C)C3(OS(=O)(=O)C=C3N)[C@H]2O[Si](C)(C)C(C)(C)C)c(=O)n(C)c1=O,RT activity,RT-V106A,IIIB,>250 µM
Cc1cn([C@H]2C[C@H](N=[N+]=[N-])[C@@H](CP(=O)(O)OP(=O)(O)C(Cl)(Cl)P(=O)(O)O)O2)c(=O)[nH]c1=O,fluorescence,,,>10 µM
O=C(O)C(=NNc1ccc(Cl)cc1)C(=O)O,radiometric,,,4.5 µM
CCc1c([Se]c2ccccn2)n(COCc2ccccc2)c(=O)[nH]c1=O,RT activity,,RT-WT,0.2 µM
CS(=O)(=O)N1CCC(NC(=O)c2cc(O)c(O)c(O)c2)CC1,ELISA / nucleotide incorporation,,BH10,>363.2 µM
O=c1c(O)c(-c2ccc(O)c(O)c2)oc2cc(O)cc(O)c12,RT activity / fluorescence,,,>100 µg/mL
CNC(=O)[C@H](Cc1ccccc1)NC(=O)OC[C@H]1O[C@@H](n2cc(C)c(=O)[nH]c2=O)C[C@@H]1N=[N+]=[N-],radiometric,,,>100 µM
Cc1cn([C@H]2CC[C@@H](CC(F)(F)P(=O)(O)OP(=O)(O)NP(=O)(O)O)O2)c(=O)[nH]c1=O,fluorescence,,,~10 µM
Cc1cc(C)c(-n2nnnc2SCC(=O)Nc2ccccc2C(F)(F)F)c(C)c1,nucleotide incorporation / radiometric,,,<2 µM
O=C(Nc1cc(-c2ccc3c(c2)CCCC3)[nH]n1)c1ccno1,RT activity / nucleotide incorporation / luminescence,Y181C,NL4-3,0.54 µM
CC(C)=CCC[C@H](C)C1=C2CC[C@@H]3[C@@]4(C)CC[C@H](O)C(C)(C)[C@@H]4CC[C@@]3(C)[C@]2(C)CC1,nucleotide incorporation,,,3.5 µM
COc1ccc2c(c1)N(C(=O)OC(C)C)[C@@H](CSC)C(=S)N2,scintillation proximity / radiometric,RT-Y181I,,3.9 µM
CCN1c2ncc(COc3cccc(C(=O)OC)c3)cc2C(=O)N(C)c2ccc(Cl)nc21,nucleotide incorporation / radiometric,,WT,<1 µM
Cc1cn(Cc2ccc(Br)c(Oc3cc(Cl)cc(C#N)c3)c2F)c(=O)[nH]c1=O,scintillation proximity / radiometric,Wild type,,0.003 µM
CC(C)=CCc1c(O)cc2oc3ccc(O)cc3c(=O)c2c1O,RT activity / radiometric,,,58.24 µM
N#Cc1cc(Cl)cc(Oc2c(Br)ccc(Cn3c(=O)[nH]c4ncccc43)c2F)c1,scintillation proximity / radiometric,NNRTI-resistant (RT K103N/Y181C),K103N/Y181C,0.005 µM
NS(=O)(=O)c1ccc(NC(=O)CSc2nnnn2-c2cc(Cl)ccc2Cl)c(Cl)c1,,,,0.003 µM
O=C(NC1CCN(S(=O)(=O)c2ccccc2)CC1)c1cc(O)c(O)c(O)c1,ELISA / nucleotide incorporation,,BH10,>305.8 µM
COc1c(O)cc(O)c2c(=O)c3cc(O)ccc3oc12,RT activity / radiometric,,,63.92 µM
Cc1cc(C)c(-n2nnnc2SCC(=O)Nc2ccccc2Br)c(C)c1,,RT-K103N,,0.035 µM
O=C(/C=C/c1ncc(-c2cccnc2)cn1)Nc1cc(-c2ccc3c(c2)CCCC3)[nH]n1,RT activity / nucleotide incorporation / luminescence,Y181C,NL4-3,0.21 µM
COC(=O)[C@H](Cc1ccccc1)NP(=O)(O)OC[C@H]1O[C@@H](n2cc(C)c(=O)[nH]c2=O)C[C@@H]1N=[N+]=[N-],radiometric,,,>100 µM
Cc1cc(C)c(-n2nnnc2SCC(=O)Nc2cccc3ncccc23)c(C)c1,nucleotide incorporation / radiometric,,,<2 µM
CCN1c2ncc(/C=C\c3ccccc3)cc2C(=O)N(C)c2cccnc21,nucleotide incorporation / radiometric,,WT,<1 µM
N#Cc1cc(Cl)cc(Oc2c(Br)ccc(Cc3ccc[nH]c3=O)c2F)c1,scintillation proximity / radiometric,Wild type,,0.019 µM
CC(C)=CCN1Cc2cccc3[nH]c(=S)n(c23)C[C@@H]1C,RT activity,RT-T181C,,8.5 µM
Cn1cc(C(=O)O)c(=O)c2cc(Br)c(Oc3ccnc(Nc4ccc(C#N)cc4)n3)cc21,RT activity / fluorescence,,,1.15 µM
CCN1c2ncc(COc3ccccc3O)cc2C(=O)N(C)c2ccc(Cl)nc21,nucleotide incorporation / radiometric,RT-Y181C,,<1 µM
CC1(C)CC[C@]2(CO)CC[C@]3(C)C(=CCC4[C@@]5(C)CC[C@H](O)C(C)(C)C5CC[C@]43C)C2C1,nucleotide incorporation,,,5 µM
Cc1cc(C)cc(S(=O)(=O)c2c(C(=O)Nc3ccc(O)cc3)[nH]c3ccc(Cl)cc23)c1,RT activity / radiometric,Y181I,,0.061 µM
Cc1ccc(C(=O)N2CCC(NC(=O)c3cc(O)c(O)c(O)c3)CC2)cc1,ELISA / nucleotide incorporation,,BH10,>324 µM
CCOCn1c(Cc2ccccc2)c(C(C)C)c(=O)[nH]c1=O,RT activity,,IIIB,0.106 µM
O=c1cc(-c2ccc(O)cc2)oc2cc(O)c(O)c(O)c12,RT activity / fluorescence,,,53.1 µg/mL
CNC(=O)[C@@H](Cc1ccccc1)NC(=O)OC[C@H]1O[C@@H](n2cc(C)c(=O)[nH]c2=O)C[C@@H]1N=[N+]=[N-],radiometric,,,>100 µM
O=c1c2cccc(O)c2oc2cc(O)cc(O)c12,RT activity / radiometric,,,428 µM
O=C(CSc1nnnn1-c1cccc(Cl)c1)Nc1ccccc1Cl,nucleotide incorporation / radiometric,,,<2 µM
Cc1cn([C@H]2CC[C@@H](CC(F)(F)P(=O)(O)OP(=O)(O)C(F)(F)P(=O)(O)O)O2)c(=O)[nH]c1=O,fluorescence,,,~10 µM
Cc1occc1C(=S)Nc1ccc(Cl)c(/C=N/OC(C)(C)C)c1,RT activity,,IIIB,0.148 µM
CCN1c2ncc(CNc3cccc(N)c3)cc2C(=O)N(C)c2ccc(Cl)nc21,nucleotide incorporation / radiometric,RT-Y181C,,<1 µM
O=C(NC1CCN(C(=O)c2ccccc2)CC1)c1cc(O)c(O)c(O)c1,ELISA / nucleotide incorporation,,BH10,≥296 µM
CCN1c2ncc(COc3cccnc3)cc2C(=O)N(C)c2ccc(Cl)nc21,nucleotide incorporation / radiometric,RT-Y181C,,<1 µM
O=c1cc(-c2ccc(O)c(-c3c(O)cc(O)c4c(=O)cc(-c5ccc(O)cc5)oc34)c2)oc2cc(O)cc(O)c12,RT activity / fluorescence,,,30.9 µg/mL
N#Cc1cc(Cl)cc(Oc2c(Br)ccc(Cn3c(=O)[nH]c4cnccc43)c2F)c1,scintillation proximity / radiometric,NNRTI-resistant (RT K103N/Y181C),K103N/Y181C,0.004 µM
CCCn1cc(C(=O)O)c(=O)c2cc(Br)c(Oc3ccnc(Nc4ccc(C#N)cc4)n3)cc21,RT activity / fluorescence,,,0.83 µM
O=C(Nc1cc(-c2ccc3c(c2)CCCC3)[nH]n1)c1ncccn1,RT activity / nucleotide incorporation / luminescence,Y181C,NL4-3,0.61 µM
Cc1cc(S(N)(=O)=O)ccc1NC(=O)COc1ccc(Cl)c(Oc2cc(C#N)cc(C3CC3)c2)c1F,scintillation proximity / radiometric,,,0.0184 µM
Nc1nc2c(ncn2[C@H]2CC[C@@H](COP(=O)(O)OP(=O)(O)OP(=O)(O)O)O2)c(=O)[nH]1,RT activity,,IIIB,0.13 µM
S=C(NCCc1ccc(Br)cc1)Nc1ccc(Br)cn1,scintillation proximity,,,2.7 µM
O=C(Nc1cc(-c2ccc3c(c2)CCCC3)[nH]n1)c1ccc(-c2cncnc2)s1,RT activity / nucleotide incorporation / luminescence,K103N,NL4-3,0.38 µM
CCCn1cc(C(=O)O)c(=O)c2cc(I)c(Oc3ccnc(Nc4ccc(C#N)cc4)n3)cc21,RT activity / fluorescence,,,0.63 µM
COC(=O)[C@H](Cc1ccccc1)NC(=O)OC[C@H]1O[C@@H](n2cc(C)c(=O)[nH]c2=O)C[C@@H]1N=[N+]=[N-],radiometric,,,>100 µM
N#Cc1cc(Cl)cc(Oc2c(Br)ccc(Cn3cn[nH]c3=O)c2F)c1,scintillation proximity / radiometric,NNRTI-resistant (RT K103N/Y181C),K103N/Y181C,0.013 µM
C=C(C)[C@@H]1CC[C@]2(COC(C)=O)CC[C@]3(C)[C@H](CC[C@@H]4[C@@]5(C)CC[C@H](OC(C)=O)C(C)(C)[C@@H]5CC[C@]43C)[C@@H]12,nucleotide incorporation,,,1.3 µM
Cc1ccc(Cl)cc1-n1nnnc1SCC(=O)Nc1ccccc1[N+](=O)[O-],,,,0.023 µM
N#Cc1cc(Cl)cc(Oc2c(Br)ccc(CN3CC(=O)NC3=O)c2F)c1,scintillation proximity / radiometric,NNRTI-resistant (RT K103N/Y181C),K103N/Y181C,0.011 µM
CCC(C)n1cc(C(=O)O)c(=O)c2cc(Br)c(Oc3ccnc(Nc4ccc(C#N)cc4)n3)cc21,RT activity / fluorescence,,,2.75 µM
CN1C(=O)NC(=O)C1Cc1ccc(Br)c(Oc2cc(Cl)cc(C#N)c2)c1F,scintillation proximity / radiometric,NNRTI-resistant (RT K103N/Y181C),K103N/Y181C,0.007 µM
CCCCn1cc(C(=O)O)c(=O)c2cc(Br)c(Oc3ccnc(Nc4ccc(C#N)cc4)n3)cc21,RT activity / fluorescence,,,0.65 µM
CCN1c2ncc(CCc3ccccc3)cc2C(=O)N(C)c2ccc(Cl)nc21,nucleotide incorporation / radiometric,RT-Y181C,,<1 µM

Repeating the first 7 entries:

structure | read by | mutations | strain | value
NS(=O)(=O)c1ccc(NC(=O)CSc2nnnn2-c2cccc(Cl)c2Cl)c(Cl)c1 |  |  |  | 0.009 µM
CNC(=O)[C@@H](Cc1c[nH]c2ccccc12)NC(=O)OC[C@H]1O[C@@H](n2cc(C)c(=O)[nH]c2=O)C[C@@H]1N=[N+]=[N-] | radiometric |  |  | >100 µM
CCCS(=O)(=O)N1CCN(C(=O)c2cc(O)c(O)c(O)c2)CC1 | ELISA / nucleotide incorporation |  | BH10 | >50 µM
Cc1cn([C@@H]2O[C@H](CO[Si](C)(C)C(C)(C)C)C3(OS(=O)(=O)C=C3N)[C@H]2O[Si](C)(C)C(C)(C)C)c(=O)n(C)c1=O | RT activity | RT-V106A | IIIB | >250 µM
Cc1cn([C@H]2C[C@H](N=[N+]=[N-])[C@@H](CP(=O)(O)OP(=O)(O)C(Cl)(Cl)P(=O)(O)O)O2)c(=O)[nH]c1=O | fluorescence |  |  | >10 µM
O=C(O)C(=NNc1ccc(Cl)cc1)C(=O)O | radiometric |  |  | 4.5 µM
CCc1c([Se]c2ccccn2)n(COCc2ccccc2)c(=O)[nH]c1=O | RT activity |  | RT-WT | 0.2 µM

Rows are shuffled and stem from different studies. ICn is the concentration giving n% inhibition.